The target of data set [1] is T1, P37 (Trypanosoma brucei) (UniProt O15759).
T1 sequence (looked up, limits assumed): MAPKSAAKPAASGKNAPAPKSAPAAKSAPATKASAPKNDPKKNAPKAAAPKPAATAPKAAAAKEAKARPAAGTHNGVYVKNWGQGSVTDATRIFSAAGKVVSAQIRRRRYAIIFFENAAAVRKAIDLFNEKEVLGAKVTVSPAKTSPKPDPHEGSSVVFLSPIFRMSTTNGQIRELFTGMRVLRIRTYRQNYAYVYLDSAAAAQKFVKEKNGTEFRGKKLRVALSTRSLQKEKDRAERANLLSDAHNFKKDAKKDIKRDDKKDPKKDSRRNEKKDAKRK
Description: competition with a labelled probe. The following applies: needs about 10x more than LoopA/StemV; recombinant protein; protein details: His (pQE-1); label: unlabeled competitor.

The target in data set [2] is T2, P34 (Trypanosoma brucei) (UniProt O15758).
T2 sequence (looked up, limits assumed): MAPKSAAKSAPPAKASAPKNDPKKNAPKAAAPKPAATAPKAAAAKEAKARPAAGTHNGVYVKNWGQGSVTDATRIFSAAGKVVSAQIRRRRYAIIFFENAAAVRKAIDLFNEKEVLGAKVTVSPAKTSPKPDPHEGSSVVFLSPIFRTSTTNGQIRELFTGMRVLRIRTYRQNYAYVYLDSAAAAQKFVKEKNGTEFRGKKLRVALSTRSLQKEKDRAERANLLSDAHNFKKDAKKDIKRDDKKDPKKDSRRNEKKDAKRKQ
As to the kind of experiment: competition with a labelled probe. The following applies: needs about 10x more than LoopA/StemV; recombinant protein; protein details: His (pQE-1); label: unlabeled competitor.

The exact form of at least one protein or probe is not confirmed. The comparison behind a weaker result is the experiment's own reference, which may not be listed here. Protein sequences can lack the tags named with them.

For “GGCCGAAUGCACCAUAUCCCGUCCGAUUUGUGAAGUUAAGCGGCC [beta arm]”, the binding result in data set [1] and in data set [2] was “binds more weakly” in each case.
